Measured values as given in PMC8001506 (Marine Drugs, 2021).

Amino acid sequences for entries named in this document (tags omitted). A change or cut given only in a name is not applied to a line headed by its entry. Residues count along the entry.
UniProt P18916, 23-519 limits assumed: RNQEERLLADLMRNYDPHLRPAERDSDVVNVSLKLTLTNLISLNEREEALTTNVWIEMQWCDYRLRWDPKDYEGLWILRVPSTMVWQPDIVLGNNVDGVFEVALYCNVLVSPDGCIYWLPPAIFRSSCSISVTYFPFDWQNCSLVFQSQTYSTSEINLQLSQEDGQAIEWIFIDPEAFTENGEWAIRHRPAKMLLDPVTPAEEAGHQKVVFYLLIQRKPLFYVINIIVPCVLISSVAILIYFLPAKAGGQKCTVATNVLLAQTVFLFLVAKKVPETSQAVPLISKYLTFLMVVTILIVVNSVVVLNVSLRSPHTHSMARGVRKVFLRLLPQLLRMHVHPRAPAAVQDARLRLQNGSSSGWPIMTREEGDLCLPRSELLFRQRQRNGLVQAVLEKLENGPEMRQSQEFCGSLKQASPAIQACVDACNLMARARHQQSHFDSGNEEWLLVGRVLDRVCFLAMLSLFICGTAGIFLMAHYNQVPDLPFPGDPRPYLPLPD
UniProt P25108, 21-457 limits assumed: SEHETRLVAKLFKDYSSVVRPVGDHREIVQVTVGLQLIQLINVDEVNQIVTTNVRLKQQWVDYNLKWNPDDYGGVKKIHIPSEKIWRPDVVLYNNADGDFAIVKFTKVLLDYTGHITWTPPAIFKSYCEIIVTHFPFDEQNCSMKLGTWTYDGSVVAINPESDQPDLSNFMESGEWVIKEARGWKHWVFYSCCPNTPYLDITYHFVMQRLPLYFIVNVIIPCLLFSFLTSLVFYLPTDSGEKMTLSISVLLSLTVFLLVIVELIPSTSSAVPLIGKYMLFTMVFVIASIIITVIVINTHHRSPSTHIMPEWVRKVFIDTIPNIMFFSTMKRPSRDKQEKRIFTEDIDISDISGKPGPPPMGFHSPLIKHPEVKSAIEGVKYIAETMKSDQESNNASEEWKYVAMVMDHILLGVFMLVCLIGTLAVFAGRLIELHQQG
UniProt P25109, 24-501 partner limits assumed: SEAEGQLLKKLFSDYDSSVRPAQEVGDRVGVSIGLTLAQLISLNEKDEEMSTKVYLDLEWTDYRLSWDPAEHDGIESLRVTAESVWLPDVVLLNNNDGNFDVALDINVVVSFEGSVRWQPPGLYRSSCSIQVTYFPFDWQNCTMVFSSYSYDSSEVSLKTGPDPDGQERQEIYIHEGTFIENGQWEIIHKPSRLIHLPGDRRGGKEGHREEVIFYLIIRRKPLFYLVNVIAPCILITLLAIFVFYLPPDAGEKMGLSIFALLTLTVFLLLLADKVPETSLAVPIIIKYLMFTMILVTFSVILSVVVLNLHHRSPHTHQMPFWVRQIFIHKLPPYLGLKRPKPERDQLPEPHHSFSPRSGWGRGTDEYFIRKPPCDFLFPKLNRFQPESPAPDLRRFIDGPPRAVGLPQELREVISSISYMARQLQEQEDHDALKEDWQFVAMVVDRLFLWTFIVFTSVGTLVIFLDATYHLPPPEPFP
UniProt P25110, 22-517 limits assumed: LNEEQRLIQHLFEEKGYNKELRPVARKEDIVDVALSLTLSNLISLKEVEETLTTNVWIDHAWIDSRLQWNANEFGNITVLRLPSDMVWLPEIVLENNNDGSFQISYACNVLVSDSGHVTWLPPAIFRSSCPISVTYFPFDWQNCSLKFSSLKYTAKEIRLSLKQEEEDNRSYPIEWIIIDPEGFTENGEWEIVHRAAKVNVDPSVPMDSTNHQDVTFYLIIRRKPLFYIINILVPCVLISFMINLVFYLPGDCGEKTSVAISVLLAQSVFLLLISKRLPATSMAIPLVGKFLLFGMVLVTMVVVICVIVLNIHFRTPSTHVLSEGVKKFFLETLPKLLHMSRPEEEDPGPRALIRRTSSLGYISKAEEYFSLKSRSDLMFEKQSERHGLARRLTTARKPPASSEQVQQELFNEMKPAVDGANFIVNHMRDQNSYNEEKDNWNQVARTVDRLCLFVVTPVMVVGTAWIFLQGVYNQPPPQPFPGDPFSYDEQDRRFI

Target: rat (α1)2β1δγ nAChR (Rattus norvegicus, UniProt P18916+P25108+P25109+P25110)
Assay: two-electrode voltage-clamp inhibition of ACh-evoked currents, (α1)2β1δγ nAChR in Xenopus oocytes
Details: Xenopus laevis oocytes, −70 mV, 3-min preincubation

How did the IC50 turn out when `CC(C)C[C@@H]1NC(=O)[C@H](CC(=O)O)NC(=O)[C@H](CO)NC(=O)[C@H](Cc2c[nH]cn2)NC(=O)[C@H](CCC(N)=O)NC(=O)[C@H](C(C)C)NC(=O)[C@H](CCC(N)=O)NC(=O)[C@@H]2CSSC[C@H](NC(=O)[C@@H](NC(=O)[C@H](CC(=O)O)NC(=O)[C@H](C)NC(=O)CNC(=O)[C@H](CO)NC(=O)[C@H](C)N)[C@@H](C)O)C(=O)N[C@@H](CSSC[C@@H](C(=O)O)NC1=O)C(=O)N[C@@H](CO)C(=O)N[C@@H](CC(N)=O)C(=O)N1CCC[C@H]1C(=O)N[C@@H](C)C(=O)N2` [CIC] was run?
The IC50 was greater than 10 µM.

`CC(C)C[C@@H]1NC(=O)[C@H](CC(=O)O)NC(=O)[C@H](CO)NC(=O)[C@H](Cc2c[nH]cn2)NC(=O)[C@H](CCC(N)=O)NC(=O)[C@H](C(C)C)NC(=O)[C@H](CCC(N)=O)NC(=O)[C@@H]2CSSC[C@H](N)C(=O)N[C@@H](CSSC[C@@H](C(=O)O)NC1=O)C(=O)N[C@@H](CO)C(=O)N[C@@H](CC(N)=O)C(=O)N1CCC[C@H]1C(=O)N[C@@H](C)C(=O)N2` [Δ-CIC] was tested. Which IC50 did it give?
Its IC50 is greater than 10 µM.
